Assay results as given in patent publication US8591908B2 (Institute of Immunology, PLA, priority 2002, dated 2013).

Assay: general procedure: Fmoc solid-phase peptide synthesis; HMP-resin; HOBt/DCC; symmetrical anhydride for first amino acid
Conditions: whole synthesis, 214 nm, RP-HPLC

Substance | final HPLC purity [%]
K(Palmitoyl)SSQYIKANSKFIGITEAAAFLPSDFFPSVGGGDPRVRGLYFPA-OH | 99.9

Same assay, conditions: whole synthesis, 214 nm, gel chromatography

Substance | final HPLC purity [%]
K(Palmitoyl)SSQYIKANSKFIGITEAAAFLPSDFFPSVGGGDPRVRGLYFPA-OH | 99.8

Same assay, conditions: whole synthesis, HPLC

Substance | crude HPLC purity
CH3(CH2)10COKSSPADRE GGGSLNFLGGTTVSSSDPRVRGLYFPA | about 80%
CH3(CH2)16COKSSPADRESSS FLLTRILTIGGGDPRVRGLYFPA | about 80%
CH3(CH2)14COKSSQYIKANSKFIG ITEAAAGLSPTVWLSVGGGDPRVRGLYFPA | about 78%
CH3(CH2)16COKSSPADREAAA LLPIFFCLWVGGGDPRVRGLYFPA | about 80%
CH3(CH2)14COKSSQYIKAN SKFIGITEAAAYVNTNMGLKGGGDPRVRGLYFPA | about 81%
CH3(CH2)14COKSSQYIKAN SKFIGITEGGGFLPSDFFPSVSSSDPRVRGLYFPA | about 80%
CH3(CH2)14COKSSQYIKA NSKFIGITEAAALLCLIFLLVGGGDPRVRGLYFPA | about 85%
CH3(CH2)14COKSSQYIKANSKFI GITEAAAFLPSDFFPSVGGGCTKPTDGNCT | about 85%
CH3(CH2)16COKSSPADREAAA LLDYQGMLPVGGGDPRVRGLYFPA | about 80%
CH3(CH2)14COKSSQYIKANSK FIGITEAAASIVSPFIPLLGGGDPRVRGLYFPA | about 79%
CH3(CH2)14COKSSPADREAAA FLPSDFFPSVGGGDPRVRGLYFPA | about 80%
CH3(CH2)16COKSSPADREAAA STLPETTVVRRGGGDPRVRGLYFPA | about 82%
K(Palmitoyl)SSQYIKANSKFIGITEAAAFLPSDFFPSVGGGDPRVRGLYFPA-OH | about 80%
CH3CH2CH═CHCH2CH═CH(CH2)CH═CH(CH2)7COKSSPADREGGGWLSLLVPFVSSSDPR VRGLYFPARGLYFPA | about 80%
CH3(CH2)16COKSSQYIKANSKFI GITEAAAYVNTNMGGGGDPRVRGLYFPA | about 83%
CH3(CH2)14COKSSPADRE GGGLLVPFVQWFVSSSDPRVRGLYFPA | about 75%
CH3(CH2)14COKSSPDAREAAA ILSKTGDPVGGGDPRVRGLYFPA | about 78%
CH3(CH2)16COKSSQYIKANSKFI GITEAAAFLPSDFFPSVGGGDPRVRGLYFPA | about 80%
CH3(CH2)16COKSSPADREAAA FLGGTPVCLGGGDPRVRGLYFPA | about 74%
CH3(CH2)7CH═CH(CH2)—CO, CH3CH2CH═CHCH2CH═CH(CH2)7CO7KSSQYIKANSKFIGITEGGGDPRVRGLYFPA | about 80%
CH3(CH2)14COKSSPADREAAA GLSPTVWLSVGGGDPRVRGLYFPA | about 78%
CH3(CH2)14COKSSYIKANSK FIGITEAAAMQWNSTALHQALQDPGGGDPRVRGLYFPA | about 86%
CH3(CH2)14COKSSQYIKANSK FIGITEAAAPLGFFPDHGGGDPRVRGLYFPA | about 81%

Ends that are not written are not given here. * marks the point of attachment. Palmitoyl = CCCCCCCCCCCCCCCC(=O)*
